Results on six molecules are retold here after patent US20170189529A1 (CONTRAFECT, published 2017).

Assay [1] deals with recombinant HA of influenza A H1 A/California/09 (influenza A virus H1 A/California/09). Put plainly: recombinant HA ELISA (AttoPhos fluorescence, mean of triplicates). For orientation: An ELISA detects its analyte on a solid surface through an enzyme-linked reagent.
Assay [2] has as its target recombinant HA of influenza A H3 A/Sydney/97 (influenza A virus H3 A/Sydney/97). Described as above.
For assay [3], the target named is hemagglutinin of influenza A virus A/VNH5N1-PR8/CDC-RG (H5), on virus (influenza A virus H5 A/VNH5N1-PR8/CDC-RG). The assay is described as follows: cell-based or functional assay.
The target of assay [4] is H1 California 07/09 HA trimer (influenza A virus H1 California 07/09).

B1: TRL841 (antibody, V domains shown)
VH: QVQLVESGGGVVQPGRSLRLSCAASGFTFSSYGIYWVRQAPGKGLEWVAFISYDEINKFYADSVKGRFTISRDNSKNTVFLQMNSLRDEDTAVYYCAKPLRGSYRYFDLWGRGTVVTVSS
VL: DIVMTQPPATLSVSPGERATLSCGASQGLGSNLAWYQQKPGQAPRLLIYAASTRATGITARFSGSGSGTEFTLTINSLQSEDFALYYCQQYTYWPLTFGGGTKVEIKR
On to B1, for which the figures for the “fold reactivity over background” value in assay [1] and in assay [2] were 1.1 fold over background and 1 fold over background, respectively.

B2: TRL849 (antibody, V domains shown)
VH: QVQLVESGPGLVKPSQTLSLTCTVSGGSISNGGYHWSWIRQHPGKGLEWIGNIYYRGSTFYDPSLKSRVTISVDTSKSQFSLKLTSVTAADTAVYYCARMPLANYDLLTGLYIGAFDLWGQGTMVTVSS
VL: DIVLTQSPATLSVSPGERATLSCRASQSVNRNLAWFQQIPGQAPRLLIFDASTRAADIPARFSGGGSGAEFTLTVSSLQPEDFAVYYCQQYDKWPPGFGQGTKVEIKR
Regarding B2, the entries for the “fold reactivity over background” value in assay [1] and in assay [2] were 1 fold over background and 1.1 fold over background, respectively.

B3: TRL842 (antibody, V domains shown)
VH: QVQLLESGGDVVQPGTSLRLSCAASGFSLWTSGMHWVRQAPGKGLEWVAVMSYDETKKYYADSVRGRFSISRDNSRNTLYLQMNSLRVEDTAVYFCAKPRLDYLDYFHAADSWGQGTLVSVSS
VL: DIVLTQPPSVSVAPGQTATITCGGNYIGSKSVNWYQQRPGHAPVLVVYDDSDRPSGIPDRFSGSNSRSTATTATLTISRVEAGDEADYYCQVWETSEDLWVFGGGTKLTVLG
On to B3, for which the “fold reactivity over background” value in assay [1] worked out at 1 fold over background; in assay [2], 1.1 fold over background.

B4: TRL848 (antibody, V domains shown)
VH: QVQLLESGGDVVQPGTSLRLSCAASGFSLWTSGMHWVRQAPGKGLEWVAVMSYDETKKYYADSVRGRFSISRDNSRNTLYLQMNSLRVEDTAVYFCAKPRLDYLDYFHAADSWGQGTLVSVSS
VL: DIVLTQPPSVSVAPGQTATITCGGNYIGSKSVNWYQQRPGHAPVLVVYDDSDRPSGIPDRFSGSNSRSTATTATLTISRVEAGDEADYYCQVWETSEDLWVFGGGTKLTVLG
As to B4, the “fold reactivity over background” value in assay [1] and in assay [2] was 1.1 fold over background in each case.

B5: TRL846 (antibody, V domains shown)
VH: QVQLVESGGGLVQPGGSLRLSCTVSGFTFNSYAMNWVRQAPGKGLEWVSGIRGSGENTYYAETVKGRFTISRDNSKNTLYLEMNSLRAEDTAVYYCARKWGRMTVFGVATDQLYYFDYWGQGTLVTVSS
VL: DITLTQSPATLSVSPGERATLSCRASQSVSSNLAWYQQKPGQAPRLLIYGASNRATDIPARFSGSGSGTEFTLTISSLQSEDFAVYYCQQFNDWPFLTFGGGTKVEIKR
For B5, the “fold reactivity over background” value in assay [1] worked out at 1.5 fold over background; in assay [2], 1.1 fold over background.

B6: TRL053 (antibody, V domains shown)
VH: QVQLVQSGAEVRKPGSSVKVSCKVSGGIIRKYAINWVRQAPGQGLEWMGGIIAIFNTANYAQKFQGRVTITADESTSTVYMELSSLRSEDTALYYCARGMNYYSDYFDYWGQGSLVTVSP
VL: EIVLTQSPGTLSLSPGERATLSCRASQSVRSNNLAWYQHKPGQAPRLLIFGASSRATGIPDRFSGSGSGTDFTLTISRLEPEDFAVYYCQQYGSSPALTFGGGTKVEIKR
By Kd is commonly meant the free concentration of one partner at which half of the binding sites on the other are occupied at equilibrium, for simple one-to-one binding. Read a high Kd as lower affinity. A word on the koff: it is the first-order rate constant of dissociation. A lower koff goes with a long-lived complex. By kon is commonly meant a measure of how fast the partners come together. As for B6, the “IC50 (ug/ml), MDCK monolayer microneutralization assay” value in assay [3] stood at 10.7 µg/mL. In addition, in assay [4], the dissociation constant Kd turned out to be 0.2 nM, the off-rate (koff) was found to be 2.8e-05 s⁻¹ and the kon is 170000 M⁻¹ s⁻¹.
